In patent US20050227933A1 (priority 2001, published 2005):
pKi: −log10 of the molar value.

Protein sequences, listed by entry. Tags and fused reporters are not part of them. Lines headed by an entry give the natural chain unless they say otherwise; changes in a name come on top.
UniProt P0CAW2: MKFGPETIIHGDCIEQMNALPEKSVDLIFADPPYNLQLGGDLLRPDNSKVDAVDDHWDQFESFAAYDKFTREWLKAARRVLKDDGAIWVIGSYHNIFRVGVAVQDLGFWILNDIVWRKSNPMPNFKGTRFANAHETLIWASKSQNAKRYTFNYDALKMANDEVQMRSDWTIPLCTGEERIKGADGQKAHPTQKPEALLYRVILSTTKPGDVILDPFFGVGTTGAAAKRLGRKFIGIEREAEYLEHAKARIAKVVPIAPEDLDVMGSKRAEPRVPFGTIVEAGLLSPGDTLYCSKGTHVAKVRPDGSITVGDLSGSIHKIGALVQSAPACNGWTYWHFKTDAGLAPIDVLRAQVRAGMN

Biological target: adenine DNA methyltransferase (UniProt P0CAW2)
Assay: In vitro DNA methyltransferase filter assay on library samples (3H-SAM, hemimethylated 45/50 DNA)
Assay type: biochemical
Conditions: read-out: approximate Ki; assuming the theoretical maximum concentration in the well

c1ccc(B(OCCNc2ncnc3[nH]cnc23)c2ccccc2)cc1
pKi: 6.00
